Experiment [1] concerns Candida albicans. Kind of experiment: Antifungal activity against Candida albicans ATCC 10231 by NCCLS method. It counts as functional. An outline of the steps:
(§1)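 Broth dilution per NCCLS yeast reference method, in HEPES-buffered RPMI with 1% DMSO. MIC80 is the lowest concentration giving more than 80% growth inhibition versus positive (no-drug) controls. Read by visual scoring, not absorbance. Highest level tested 125 µg/mL.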

The test system of experiment [2] is Nakaseomyces glabratus. Nature of the experiment: Antifungal activity against Candida glabrata ATCC 48435 by NCCLS method. Type of experiment: functional. An outline of the steps: as §1

Structures are written as SMILES. ≈ marks a conversion by molar mass, not a printed value. Calls of active or inactive are those of the source. The rule behind the calls is not given here.

With `O=[N+]([O-])c1ccc(N/N=C/c2cc([N+](=O)[O-])cc([N+](=O)[O-])c2O)cc1`, the MIC80 in experiment [1] and in experiment [2] was 125 µg/mL (≈ 360 µM) throughout.

With `O=C(N/N=C/c1cc([N+](=O)[O-])cc([N+](=O)[O-])c1O)c1ccc([N+](=O)[O-])cc1`, the MIC80 result in experiment [1] and in experiment [2] was “inactive” each time.

The MIC80 is the lowest concentration that inhibits either 80% of growth or 80% of the strains tested, depending on the study.

Source of the values: ChEMBL document CHEMBL3352109, “Synthesis and antifungal activity of substituted salicylaldehyde hydrazones, hydrazides and sulfohydrazides” (Bioorg Med Chem, 2014).
